Article PMC3806850, “The Tumor Targeted Superantigen ABR-217620 Selectively Engages TRBV7-9 and Exploits TCR-pMHC Affinity Mimicry in Mediating T Cell Cytotoxicity” (PLoS ONE, 2013)

Columns and labels:
[1] = target: 5T4Fab(V18)-SEA (not stated | not stated (staphylococcal)) (UniProt P0A0L2); assay: SPR
[2] = target: C215Fab-SEA (not stated | not stated (staphylococcal)) (UniProt P0A0L2); assay: SPR

Substance: soluble TCR reagent TRBV7-9 (disulfide-linked αβ-heterodimer)
- Kd [1]: 0.73 µM
- Kd [2]: 1.2 µM
